Results of unrelated studies side by side (data: NIAID ChemDB).

Common to all: growth or infection tests; species: Mycobacterium avium intracellulare

Blank or dashed fields: not listed here.

{"SMILES": "Cc1c(F)c(N2CCNC(C)C2)cc2c1c(=O)c(C(=O)O)cn2C1CC1", "read-out": "MIC50", "value": "6.25 µg/mL"}
{"SMILES": "CC[C@H]1OC(=O)[C@H](C)[C@@H](O[C@H]2C[C@@](C)(OC)[C@@H](OC(C)=O)[C@H](C)O2)[C@H](C)[C@@H](O[C@@H]2O[C@H](C)C[C@H](N(C)C)[C@H]2O)C(C)(O)C[C@@H](C)/C(=N\\OCCSc2ccccc2)[C@H](C)[C@@H](O)[C@]1(C)O", "strain or isolate": "20066 (clarithromycin-susceptible)", "read-out": "MIC", "value": "3.13 µg/mL"}
{"SMILES": "C[C@@H](O)[C@H]1C(=O)N2C(C(=O)O)=C(SCCN=CN)C[C@H]12", "strain or isolate": "CIPT 140310019", "read-out": "MIC", "value": "10 µg/mL"}
{"SMILES": "CC[C@H]1OC(=O)[C@H](C)[C@@H](OC2C[C@@](C)(OC)[C@@H](OC(=O)CC3CCCCC3)[C@H](C)O2)[C@H](C)[C@@H](O[C@@H]2O[C@H](C)C[C@H](N(C)C)[C@H]2O)C(C)(O)C[C@@H](C)/C(=N\\OCCCOc2ccccc2)[C@H](C)[C@@H](O)[C@]1(C)O", "strain or isolate": "20066 (clarithromycin-susceptible)", "read-out": "MIC", "value": "1.56 µg/mL"}
{"SMILES": "COc1cc(NC(C)CCCN)c2nc(C(C)(C)C)ccc2c1Oc1cccc(C(F)(F)F)c1", "read-out": "MBC", "value": "5 µg/mL"}
{"SMILES": "CC[C@H]1OC(=O)[C@H](C)[C@@H](O[C@H]2C[C@@](C)(OC)[C@@H](OC(C)=O)[C@H](C)O2)[C@H](C)[C@@H](O[C@@H]2O[C@H](C)C[C@H](N(C)C)[C@H]2OC(=O)NNc2ccccc2)C(C)(O)C[C@@H](C)/C(=N\\OCCCC2CCCCC2)[C@H](C)[C@@H](O)[C@]1(C)O", "strain or isolate": "20066 (clarithromycin-susceptible)", "read-out": "MIC", "value": "≤0.2 µg/mL"}
{"SMILES": "CC[C@H]1OC(=O)[C@H](C)[C@@H](O[C@H]2C[C@@](C)(OC)[C@@H](O)[C@H](C)O2)[C@H](C)[C@@H](O[C@@H]2O[C@H](C)C[C@H](N(C)C)[C@H]2O)[C@](C)(OC)C[C@@H](C)C(=O)[C@H](C)[C@@H](O)[C@]1(C)O", "strain or isolate": "N-919 (HIV-)", "read-out": "MIC", "value": "0.125 µg/mL"}
{"SMILES": "C/C=C(/C)C(=O)Oc1ccc(OC)cc1C1OC1C", "strain or isolate": "ATCC 19709", "read-out": "MBC", "value": ">20 µg/mL"}
{"SMILES": "CO[C@H]1/C=C/O[C@@]2(C)Oc3c(C)c(O)c4c(=O)c(c5oc6cc(N7CCN(CC(C)C)CC7)cc(=O)c6nc5c4c3=C2O)NC(=O)/C(C)=C\\C=C\\[C@H](C)[C@H](O)[C@@H](C)[C@@H](O)[C@@H](C)[C@H](OC(C)=O)[C@@H]1C", "strain or isolate": "N-752 (HIV-)", "read-out": "MIC", "value": "≤0.0125 µg/mL"}
{"SMILES": "CC[C@H]1OC(=O)[C@H](C)[C@@H](O[C@H]2C[C@@](C)(OC)[C@@H](OC(C)=O)[C@H](C)O2)[C@H](C)[C@@H](O[C@@H]2O[C@H](C)C[C@H](N(C)C)[C@H]2OC(=O)NNC)C(C)(O)C[C@@H](C)/C(=N\\OCCCC2CCCCC2)[C@H](C)[C@@H](O)[C@]1(C)O", "strain or isolate": "20066 (clarithromycin-susceptible)", "read-out": "MIC", "value": "0.78 µg/mL"}
{"SMILES": "C=C(CCC=C(C)C)[C@@H]1CC[C@@]2(C)O[C@H]2C1", "strain or isolate": "ATCC 19709", "read-out": "MBC", "value": ">20 µg/mL"}
{"SMILES": "C[C@@H]1CN(c2c(F)c(N)c3c(=O)c(C(=O)O)cn(C4CC4)c3c2F)C[C@H](C)N1", "strain or isolate": "31 strains", "read-out": "MIC50", "value": "6.25 µg/mL"}
{"SMILES": "CC[C@H]1OC(=O)[C@H](C)[C@@H](OC2C[C@@](C)(OC)[C@@H](OC(=O)Cc3ccccc3)[C@H](C)O2)[C@H](C)[C@@H](O[C@@H]2O[C@H](C)C[C@H](N(C)C)[C@H]2O)C(C)(O)C[C@@H](C)/C(=N\\OCCCOc2ccccc2)[C@H](C)[C@@H](O)[C@]1(C)O", "strain or isolate": "20066 (clarithromycin-susceptible)", "read-out": "MIC", "value": "0.78 µg/mL"}
{"SMILES": "C[C@@H]1CN(c2c(F)c(N)c3c(=O)c(C(=O)O)cn(C4CC4)c3c2F)C[C@H](C)N1", "strain or isolate": "N-551 (HIV-)", "read-out": "MIC", "value": "4 µg/mL"}
{"SMILES": "CC1(C)S[C@@H]2[C@H](NC(=O)C(C(=O)O)c3ccccc3)C(=O)N2[C@H]1C(=O)O", "strain or isolate": "CIPT 140310021", "read-out": "MIC", "value": "25 µg/mL"}
{"SMILES": "CC[C@H]1OC(=O)[C@H](C)[C@@H](O[C@H]2C[C@@](C)(OC)[C@@H](OC(C)=O)[C@H](C)O2)[C@H](C)[C@@H](O[C@@H]2O[C@H](C)C[C@H](N(C)C)[C@H]2OC(=O)NNCc2ccccc2)C(C)(O)C[C@@H](C)/C(=N\\OCCCC2CCCCC2)[C@H](C)[C@@H](O)[C@]1(C)O", "strain or isolate": "20066 (clarithromycin-susceptible)", "read-out": "MIC", "value": "1.56 µg/mL"}
{"SMILES": "Cc1onc(-c2ccccc2Cl)c1C(=O)N[C@@H]1C(=O)N2[C@@H]1SC(C)(C)[C@@H]2C(=O)O", "strain or isolate": "CIPT 140310030", "read-out": "MIC", "value": "75 µg/mL"}
{"SMILES": "CO[C@H]1/C=C/O[C@@]2(C)Oc3c(C)c(O)c4c(O)c(c5c(c4c3C2=O)NC2(CCN(CC(C)C)CC2)N=5)=NC(=O)/C(C)=C\\C=C\\[C@H](C)[C@H](O)[C@@H](C)[C@@H](O)[C@@H](C)[C@H](OC(C)=O)[C@@H]1C", "strain or isolate": "16-Feb", "read-out": "MIC", "value": "0.25 µg/mL"}
{"SMILES": "CO[C@H]1/C=C/O[C@@]2(C)Oc3c(C)c(O)c4c(O)c(c5c(c4c3C2=O)NC2(CCN(CC(C)C)CC2)N=5)=NC(=O)/C(C)=C\\C=C\\[C@H](C)[C@H](O)[C@@H](C)[C@@H](O)[C@@H](C)[C@H](OC(C)=O)[C@@H]1C", "strain or isolate": "N-919 (HIV-)", "read-out": "MIC", "value": "0.05 µg/mL"}
{"SMILES": "CCNC(=O)[C@@H](NC(=O)Cc1ccccc1)[C@@H]1N[C@@H](C(=O)NCCNC(=O)[C@@H]2N[C@@H]([C@H](NC(=O)Cc3ccccc3)C(=O)NCC)SC2(C)C)C(C)(C)S1", "strain or isolate": "CIPT 140310031", "read-out": "MIC", "value": "25 µg/mL"}
{"SMILES": "CC[C@H]1OC(=O)[C@H](C)[C@@H](OC2C[C@@](C)(OC)[C@@H](O)[C@H](C)O2)[C@H](C)[C@@H](O[C@@H]2O[C@H](C)C[C@H](N(C)C)[C@H]2O)C(C)(O)C[C@@H](C)/C(=N\\OCCOc2ccccc2)[C@H](C)[C@@H](O)[C@]1(C)O", "strain or isolate": "20066 (clarithromycin-susceptible)", "read-out": "MIC", "value": "3.13 µg/mL"}

The first 2 rows once more:

| SMILES | strain or isolate | read-out | value |
|---|---|---|---|
| Cc1c(F)c(N2CCNC(C)C2)cc2c1c(=O)c(C(=O)O)cn2C1CC1 | - | MIC50 | 6.25 µg/mL |
| CC[C@H]1OC(=O)[C@H](C)[C@@H](O[C@H]2C[C@@](C)(OC)[C@@H](OC(C)=O)[C@H](C)O2)[C@H](C)[C@@H](O[C@@H]2O[C@H](C)C[C@H](N(C)C)[C@H]2O)C(C)(O)C[C@@H](C)/C(=N\OCCSc2ccccc2)[C@H](C)[C@@H](O)[C@]1(C)O | 20066 (clarithromycin-susceptible) | MIC | 3.13 µg/mL |

MIC50, MIC90 and the like: level of inhibition, or share of isolates inhibited. Neighbouring rows are from separate reports.